Assay results: patent US10227373B2 (priority 2014, dated 2019)

How the values were obtained:
[1] = system: human cytomegalovirus; assay type: cell-based; design: SI90: unit not given beside the values
[2] = system: Ebola virus; design: SI90: unit not given beside the values

SMILES: Nc1nc(O)c2ncn(COC(CO)CO)c2n1 [ganciclovir, reference compound]
- SI50 (CC50/EC50) [1]: > 638
- SI90 [1]: > 326

SMILES: Nc1nccc2c1ncn2[C@@H]1C[C@@H](CO)[C@H](O)[C@@H]1O [carbocyclic 3-deazaadenosine, reference compound]
- SI50 (CC50/EC50) [2]: > 100 and > 52
- SI90 [2]: 1

SMILES: Nc1nccc2c1ncn2C1=C[C@@H](CO)[C@H](O)[C@@H]1O [“L”-3-Deazaisoneplanocin, L-1′,6′-iso-3-deazaneplanocin]
- times less drug concentration than Ganciclovir to reduce viral replication by 50% [1]: 4 times
- times less drug concentration than Ganciclovir to reduce viral replication by 90% [1]: 9 times

SMILES: Nc1nccc2c1ncn2C1=C[C@H](CO)[C@@H](O)[C@H]1O [“D”-3-Deazaisoneplanocin, D-1′,6′-iso-3-deazaneplanocin]
- times higher drug concentration than “L”-3-Deazaisoneplanocin to inhibit Ebola replication by 90% [2]: 230 times
- times less drug concentration than Ganciclovir to reduce viral replication by 50% [1]: 4 times
- times less drug concentration than Ganciclovir to reduce viral replication by 90% [1]: 9 times

Several values for one entry are separate records, joined by “and”; a condition that tells them apart may be missing. Equal values may be shown once.
